Legend:
[1] = test system: Escherichia coli; conditions: C600::H19B
[2] = test system: Escherichia coli; conditions: C600::H19B; remark: listed apart in the source
[3] = test system: Escherichia coli; conditions: O157:H7 PT-40
[4] = test system: Escherichia coli; conditions: O157:H7 PT-32

Measured: MIC

GENTAMICIN
0.5 µg/mL: all assays above

Source: ChEMBL document CHEMBL1671710, “Different classes of antibiotics differentially influence shiga toxin production” (2010)
